Pooled drug test results. Numbers come from NIAID ChemDB, via PubChem.

All rows: tests in culture; organism: Hepatitis C virus; measure: EC50

Two numbers with a dash give a range or band.

SMILES	strain or isolate	changes	cell line	method	result
NS(=O)(=O)c1ccc(CNc2nc(NCC(F)(F)F)c3nc(-c4ccc(Cl)c(S(=O)(=O)NC5CCNCC5)c4)ccc3n2)cc1				replicon	<0.1 µM
OCC1CCC(c2ccc3ncnc(Nc4ccc(C5CCOCC5)cc4)c3c2)O1	2a		Huh7.5+J6/JFH-1		1.2 µM
O=C(O)C(=O)/C=C(\O)c1ccc(OCc2ccccc2)cc1			Huh-7 hepatoma cells	replicon	0.66 µM
C/C(=C\c1cn(Cc2ccccc2)c2ccc(C#N)cc12)C(=O)Nc1ccc(C(C)(C)C)cc1	2a J6/JFH-1		Huh7.5	luciferase / reporter gene	>100 µM
Cc1ccc(-n2ncc3c(Nc4ccc5[nH]ncc5c4)ncnc32)c(C)c1			HUH 9B	replicon	1–10 µM
Nc1ncnc2c1ncn2[C@@H]1O[C@H](CO)[C@@H](F)[C@@H]1F			Huh7 cells	replicon	>10 µM
Nc1ncnc2c1c(-c1ccoc1)cn2[C@@H]1O[C@H](CO)[C@@H](O)[C@H]1F	1b		HCV replicon	replicon	5.75 µM
COc1ccc2c(O[C@@H]3C[C@H]4C(=O)N[C@]5(C(=O)O)C[C@H]5/C=C\CCCCCN(NC(=O)OC(C)(C)C)C(=O)[C@@H]4C3)cc(-c3ccccc3)nc2c1	1b		Huh7-Rep	luciferase	>0.01 µM
Fc1ccccc1-c1nc2cc[n+](Cc3ccc(-c4ccc(C(F)(F)F)cc4C(F)(F)F)nn3)cc2[nH]1			Con-1	luciferase	0.0159 µM
Nc1nc(Cl)c(-c2cc3ccccc3o2)c(N[C@@H]2C[C@H](CO)[C@@H](O)[C@H]2O)n1	1b		Con-1		0.3 µM
Cc1ccc(S(=O)(=O)Oc2cccc(F)c2/C=N/NC(=O)Cc2cccc(Cl)c2)cc1			Huh7	replicon	5–50 µM
C[C@@H]1[C@H](n2ccc(N)nc2=O)O[C@@](COC(C)(C)C)(N=[N+]=[N-])[C@H]1OC(C)(C)C	genotype 1		Huh7-Rep	luciferase	3.6 µM
COc1cccc2c1c(/C=C(\C)C(=O)Nc1ccc(C(C)(C)C)cc1)cn2C(=O)OCc1ccccc1	2a J6/JFH-1		Huh7.5	luciferase / reporter gene	14.2 µM
O=C(O)C1C(c2ccc[nH]c2=O)c2c(cc(F)c3ccoc23)N1Cc1cc2[nH]c(=O)oc2cc1F			Replicon cells	PCR	2 µM
CCOc1ccc(Nc2ncnc3c2cnn3-c2ccccc2)cc1			HUH 9B	replicon	1–10 µM
CN(C(=O)c1ccncc1)c1cc(C(F)(F)F)ccc1N1CCCCC1	1b		Huh7/Rep-Feo1b	luciferase / replicon	>100 µM
CCOC(=O)c1c(CS(=O)(=O)c2ccccc2)n(C)c2cc(-c3cccnc3)c(O)c(CN(C)C)c12			Huh7.3	ELISA	14.3 µM
O=C(N/N=C/c1ccccc1OS(=O)(=O)c1ccc(C(F)(F)F)cc1)c1ccccc1Br			Huh7	replicon	<5 µM
C=C[C@@H]1C[C@]1(NC(=O)[C@@H]1C[C@@H](Oc2ncc(OC)c3ccc(Cl)cc23)CN1C(=O)[C@@H](NC(=O)OC(C)(C)C)C(C)(C)C)C(=O)NS(=O)(=O)C1CC1			H77		0.0094 µM
Cc1nc2cc(F)c(CN3c4cc(F)c5ccoc5c4C(c4ccc[nH]c4=O)C3C(=O)O)cc2c(=O)[nH]1			Replicon cells	PCR	0.02 µM
COC(=O)N[C@H](C(=O)N1CCC[C@H]1c1ncc(-c2ccc(-c3ccc(-c4cnc([C@@H]5CCCN5C(=O)[C@@H](NC(=O)OC)C(C)C)[nH]4)cc3)cc2)[nH]1)C(C)C	1b	L28V	ET	luciferase	0.0000026 µM
CCOc1nc(NCc2ccc(S(N)(=O)=O)cc2)nc2ccc(-c3ccc(NC(N)=O)cc3)nc12				replicon	<0.1 µM
COC(=O)N[C@H](C(=O)N1CC2(CC2)C[C@H]1c1ncc(-c2ccc3c(c2)C(F)(F)c2cc(-c4ccc5nc([C@@H]6[C@H]7CC[C@H](C7)N6C(=O)[C@@H](NC(=O)OC)C(C)C)[nH]c5c4)ccc2-3)[nH]1)C(C)C	Genotype 2		HCV replicon	replicon	0.021 µM
CCCCCCCCCCCCCCOC(=O)NC(CCC(=O)O)(CCC(=O)O)CCC(=O)O	1b		Huh7-Luc	luciferase / replicon	0.0081 µM
Fc1cccc(Nc2ncnc3c2cnn3-c2ccc(Cl)cc2)c1			HUH 9B	replicon	1–10 µM
COc1cc(C2OCC3C(=O)OCC32)cc(O)c1OC			Ava5	PCR	10.5 µM
Cc1ccc(S(=O)(=O)Oc2cnccc2/C=N/NC(=O)Cc2cccc(Cl)c2)cc1			Huh7	replicon	<5 µM
CCC(=O)c1c(-c2ccc(F)cc2)oc2cc(N(CCO)S(C)(=O)=O)c(C3CC3)cc12			Con-1	luciferase	0.0077 µM
CCCCc1ccc(Nc2ncnc3c2cnn3-c2ccccc2Cl)cc1			HUH 9B	replicon	1–10 µM
C/C(=C\c1cn(CCN2CCOCC2)c2ccccc12)C(=O)Nc1ccc(C(C)(C)C)cc1	2a J6/JFH-1		Huh7.5	luciferase / reporter gene	7.9 µM
COc1cc(O)c2c(=O)cc(-c3ccc(N4CCN(c5ccccn5)CC4)c(N)c3)oc2c1	1b		Huh-Luc-Neo	luciferase / reporter gene	>20 µM
Cc1ccc(-n2ncc3c(NC(=O)Nc4ccc(C#N)cc4)ncnc32)c(C)c1			HUH 9B	replicon	1–10 µM
CC(C)=CCc1c(O)cc2oc3cc(O)c(O)c(CC=C(C)C)c3c(=O)c2c1O	J6/JFH-1 (gt 2a)		Huh7.5	luciferase	2.7 µM
NS(=O)(=O)c1ccc(CNc2nc(C3CC3)c3nc(-c4ccc(C(=O)NC5CC5)cc4)ccc3n2)cc1				replicon	<0.1 µM
CC(=O)c1ccc(F)c(CN2c3cc(F)c4ccoc4c3C(c3ccc[nH]c3=O)C2C(=O)O)c1			Replicon cells	PCR	0.07 µM
FC(F)(F)c1ccccc1-n1ncc2c(NCCc3c[nH]c4ccccc34)ncnc21			HUH 9B	replicon	1–10 µM
O=C(Cc1ccccc1OCc1ccccc1)N/N=C/c1ccccc1OS(=O)(=O)c1ccc(C(F)(F)F)cc1			Huh7	replicon	<5 µM
Nc1ncnc2c1c(-c1ccccc1)cn2[C@H]1O[C@H](CO)[C@@H](O)C1(F)F	2a		HCV replicon	replicon	10.75 µM
O=C(Cc1ccccc1)N/N=C/c1ccccc1OS(=O)(=O)c1ccc(Cl)cc1			Huh7	replicon	<5 µM
Cc1ccc(-n2ncc3c(Nc4cccc(-c5cnco5)c4)ncnc32)c(C)c1			HUH 9B	replicon	<1 µM
CC(=O)n1cc(/C=C(\C)C(=O)Nc2ccc(C(C)(C)C)cc2)c2cc(C#N)ccc21	2a J6/JFH-1		Huh7.5	luciferase / reporter gene	0.98 µM
CCOc1nc(NCc2ccc(F)cc2)nc2ccc(-c3ccc(F)c(Cl)c3)nc12				replicon	<0.1 µM
C=C1CC[C@@](C)([C@H](C)CC(=O)O)[C@@]12CCC1=C2CC[C@H]2C(C)(C)C(=O)CC[C@]12C	Jc1		n4mBid cells	ATP	>100 µM
C[C@@]1(O)[C@H](O)[C@@H](CO)O[C@H]1n1cc(C#CCN)c2c(N)ncnc21			ET	replicon	>50 µM
Fc1ccccc1-c1nc2ccn(Cc3ccc(-c4ccc(C(F)(F)F)cc4C(F)(F)F)nn3)cc-2n1	1b		HeLa (clone SL3)	replicon	17.1 µM
Nc1ncnc2c1c(-c1cccs1)cn2[C@@H]1O[C@H](CO)[C@@H](O)C1(F)F	1b		HCV replicon	replicon	2.93 µM
O=C(Cc1cc(F)c(F)c(F)c1)N/N=C/c1ccccc1OS(=O)(=O)c1ccc(C(F)(F)F)cc1			Huh7	replicon	<5 µM
CCOC(=O)c1c(CSc2ccccc2)n(C)c2cc(C#N)c(O)c(CN(N(C)C)N(C)C)c12			Huh7.3	ELISA	33.9 µM
C/C(=C\c1cn(S(=O)(=O)Cc2ccccc2)c2ccc(C#N)cc12)C(=O)Nc1ccc(C(C)(C)C)cc1	2a J6/JFH-1		Huh7.5	luciferase / reporter gene	10.4 µM
Nc1cc(-c2cc(=O)c3c(O)cc(O)cc3o2)ccc1N1CCN(c2ncccn2)CC1	1b		Huh-Luc-Neo	luciferase / reporter gene	>20 µM
CCOc1nc(N)nc2c1ncn2[C@@H]1O[C@@H]2COP(=O)(OC(C)C)O[C@H]2[C@@]1(C)F	1a		Lunet	PCR	0.2 µM
Nc1ncnc2c1c(-c1cc3ccccc3o1)cn2[C@@H]1O[C@H](CO)[C@@H](O)C1(F)F	1a		HCV replicon	replicon	1.1 µM
CCOc1nc(NCc2ccc(F)c(F)c2F)nc2ccc(-c3ccc(F)cc3)nc12				replicon	<0.1 µM
CCCCCCCC(=O)Oc1cccc(O)c1C(=O)NC(=O)NC1c2ccccc2-c2ccccc21	JFH1-2a	S282T	Huh7.5.1	luciferase	0.29 µM
CN(CCS(C)(=O)=O)c1nc(NCc2ccc(F)cc2)nc2ccc(-c3ccc(NC(=O)C4(O)CC4)cc3)nc12				replicon	<0.1 µM
O=C(Cc1ccccc1Oc1ccccc1)N/N=C/c1ccccc1OS(=O)(=O)c1ccc(C(F)(F)F)cc1			Huh7	replicon	<5 µM
CC(C)(O)[C@@H](O)CCCC1CC[C@@]2(C)[C@@H]3CCC4C(C)(C)[C@H](O)CC[C@]4(C)C3=CC[C@]12C	Jc1		n4mBid cells	ATP	1.33 µM
Nc1cc(-c2cc(=O)c3c(O)cc(O)cc3o2)ccc1N1CCN(c2ccccn2)CC1	1b		Huh-Luc-Neo	luciferase / reporter gene	>20 µM
Cn1c(=O)[nH]c(=O)c2cc(CN3c4cc(F)c5ccoc5c4C(c4ccc[nH]c4=O)C3C(=O)O)c(F)cc21			Replicon cells	PCR	0.3 µM
CONC(=O)c1cccc[n+]1[O-]			Huh-luc/neo 7	luciferase / absorbance	6 µM
CCO[C@H](c1ccc(O)cc1)[C@@H](O)CO	Jc1		n4mBid cells	ATP	>100 µM
O=C(Nc1ccc(-c2ccc3nc(NCc4ccc(F)cc4)nc(NCC(F)(F)F)c3n2)cc1)C1(O)CC1				replicon	<0.1 µM
COC(=O)C1=C(C(=O)OC)C2N(C)c3ccc(OC)cc3[C@@]23C[C@@H](C(=O)OC)N(C(=O)CC(C)C)C3=N1			Huh7.5	PCR	8.8 µM
C=Cc1c2[nH]c(c1C)/C=C1\N=C(CC3=C4N=C(/C=c5\[nH]/c(c(C)c5CC)=C\2)C(C)=C4C(=O)[C@@H]3C(=O)OC)[C@@H](CCC(=O)O)[C@@H]1C	J6/JFH1-P47		Huh7.5		0.3 µg/mL
CCOc1nc(NCc2ncco2)nc2ccc(-c3ccc(F)cc3)nc12				replicon	<0.1 µM
C=CCN1c2ccccc2[C@]23CC(=O)N(Cc4ccccc4)C2=NC(C(=O)OC)=C(C(=O)OC)C13			Huh7.5	PCR	3.2 µM
O=C(O)C1C(c2ccc[nH]c2=O)c2c(cc(F)c3ccoc23)N1Cc1cc2c(=O)[nH]c(=O)[nH]c2cc1F			Replicon cells	PCR	0.006 µM
Nc1ncnc2c1c(-c1ccoc1)cn2[C@@H]1O[C@H](CO)[C@@H](O)C1(F)F	2a		HCV replicon	replicon	10.3 µM
Cc1cc(C)c2c(=O)c3cc(N)c(N4CCN(c5ccccn5)CC4)cc3n(C)c2c1			Huh 5-2	replicon	5 µg/mL
Nc1ncnc2c1c(-c1ccsc1)cn2[C@H]1O[C@H](CO)[C@@H](O)C1(F)F	1a		HCV replicon	replicon	4.71 µM
COc1ccc2c(O[C@@H]3C[C@H]4C(=O)N[C@]5(C(=O)O)C[C@H]5C=CCCCN(NC(=O)OC(C)(C)C)C(=O)[C@@H]4C3)cc(-c3ccccc3)nc2c1	1b		Huh7-Rep	luciferase	>0.01 µM

Again, the opening 7 rows:

SMILES | strain or isolate | changes | cell line | method | result
NS(=O)(=O)c1ccc(CNc2nc(NCC(F)(F)F)c3nc(-c4ccc(Cl)c(S(=O)(=O)NC5CCNCC5)c4)ccc3n2)cc1 |  |  |  | replicon | <0.1 µM
OCC1CCC(c2ccc3ncnc(Nc4ccc(C5CCOCC5)cc4)c3c2)O1 | 2a |  | Huh7.5+J6/JFH-1 |  | 1.2 µM
O=C(O)C(=O)/C=C(\O)c1ccc(OCc2ccccc2)cc1 |  |  | Huh-7 hepatoma cells | replicon | 0.66 µM
C/C(=C\c1cn(Cc2ccccc2)c2ccc(C#N)cc12)C(=O)Nc1ccc(C(C)(C)C)cc1 | 2a J6/JFH-1 |  | Huh7.5 | luciferase / reporter gene | >100 µM
Cc1ccc(-n2ncc3c(Nc4ccc5[nH]ncc5c4)ncnc32)c(C)c1 |  |  | HUH 9B | replicon | 1–10 µM
Nc1ncnc2c1ncn2[C@@H]1O[C@H](CO)[C@@H](F)[C@@H]1F |  |  | Huh7 cells | replicon | >10 µM
Nc1ncnc2c1c(-c1ccoc1)cn2[C@@H]1O[C@H](CO)[C@@H](O)[C@H]1F | 1b |  | HCV replicon | replicon | 5.75 µM

Neighbouring rows are from separate reports. ECn: concentration that inhibits the pathogen or its effect by n%. Blank or dashed fields: not listed here.